{
  "source": "paper PMC11623273",
  "about": "“Epitope-focused immunogens targeting the hepatitis C virus glycoproteins induce broadly neutralizing antibodies” (Science Advances, 2024)",
  "target": "T1, E2_S2_1 (design 2K6Z_01), epitope scaffold presenting HCV E2 epitope I",
  "T1 chain": "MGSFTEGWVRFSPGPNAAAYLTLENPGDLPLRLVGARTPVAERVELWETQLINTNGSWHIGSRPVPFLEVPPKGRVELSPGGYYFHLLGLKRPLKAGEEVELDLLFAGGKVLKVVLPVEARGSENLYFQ",
  "data": [
    {"binder": "N08 (antibody, V domains shown) VH: QVQLVESGGGVVQPGRSLRLSCAASGFTFSSYDMHWVRQAPGKGLEWMAVICFDGANTYYADSVKGRFTISRDNSKNTLYLQMNSLRAEDTAVYYCALGARNYFYYGMDVWGQGTTVTVSS VL: DIQMTQSPSSLSASVGDRVTITCRASQGIRNDLGWYQQKPGKAPKRLIYAASSLQSGVPSRFSGSGSGTEFTLTISSLQPEDSATYYCLKHNSYPWTFGQGTKVEIK", "values": [
      {"measurement": "binding result", "value": "binds"}
    ]}
  ]
}
